Record: PubChem BioAssay AID1259414 (Drosophila RNAi Screening Center, 2018)
Aim: 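Genome-wide screen for host control of endosymbiont load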 (primary screen). System: Drosophila JW18 cells infected with Wolbachia. Knock-down reagent: long dsRNA against Drosophila genes, 0.25 µg dsRNA per well of a 384-well plate. Time to read-out: 5 days. Conditions: cells persistently infected with Wolbachia before knock-down; no added drug. Measurement: 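Imaged fluorescence in situ signal for Wolbachia 23S rRNA per DAPI-counted host cell, given as a robust z-score within each plate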. Scale: Wolbachia per cell robust z: higher = more Wolbachia per host cell than the plate typical. Hit rule: 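Hit when robust z is 1.5 or more, or -1.5 or less, in at least two of three replicates; excludes dsRNAs with several or no targets, genes not expressed in JW18 and well A1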.
In all, the deposit lists about 24,000 reagents; below is a random part of those that have a named target and a result. In the full data, about 1,210 (5%) are marked active. 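Inactive calls also include excluded dsRNAs with several or no targets, genes unexpressed in JW18, and well A1, regardless of score.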 Unmarked entries are inactive. Reagents against one gene are numbered here. Names joined by + are all predicted targets of the reagent.

Gene | dsRNA no. | Wolbachia per cell robust z, rep 1 | Wolbachia per cell robust z, rep 2 | Wolbachia per cell robust z, rep 3
CG9902 | 1 | -0.284 | -0.51 | 0.49
CG9902 | 2 | -0.111 | -1.1 | -0.324
CG15615 | 1 | -0.752 | -2.02 | 0.0411
CG15615 | 2 | 0.436 | 1.28 | 0.386
Grl58a | 1 | -0.149 | 1.08 | 0.188
Ogdh | 1 | 0.693 | 0.154 | 0.618
Ogdh | 2 | 0.537 | -0.547 | 0.913
CG18675 | 1 | -7.94 | -1.19 | -0.393
LysD | 1 | -0.798 | 0.459 | -0.875
CG43783 + orb2 | 1 | 0.963 | -1.04 | -0.276
CG43783 + orb2 | 2 | -0.626 | -3.13 | -0.386
CG31800 | 1 | -0.104 | 0.55 | 0.375
CG31800 | 2 | 1.13 | 0.449 | 0.927
v | 1 | -0.67 | 0.803 | -0.45
v | 2 | -1.32 | 0.515 | -1.76
CG12521 | 1 | -1.16 | -0.443 | 0.0992
Ost48 | 1 | 0.676 | 1.22 | 0.527
CG11396 | 1 | 0.446 | -5.95 | 0.544
Ripalpha | 1 | 0.338 | -0.859 | -0.537
Nup205 | 1 | 0.869 | -0.0554 | 0.577
CG32507 | 1 | 1.03 | -0.3 | -0.809
CG43707 | 1 | -1.74 | -0.0136 | 0.298
CG43707 | 2 | 1.28 | 0.314 | 0.592
CG43707 | 3 | -1.56 | -0.41 | -0.447
CG43707 | 4 | 0.954 | 1.84 | 1.99
Atac2 | 1 | -0.521 | -0.163 | -0.27
CG42594 | 1 | 0.0246 | 0.571 | -0.755
CG42594 | 2 | 0.413 | -0.796 | -4.18
CG42594 | 3 | 0.0337 | -1.56 | -0.0832
CG42594 | 4 | -0.518 | -0.938 | 0.0586
CG42594 | 5 | -0.41 | -0.102 | -3.42
Lam | 1 | 0.726 | 1.67 | 1.17
Lam | 2 | 0.668 | 0.758 | 0.388
Zwilch | 1 | 1.06 | 1.14 | 0.146
CG7632 | 1 | -0.367 | -0.175 | 0.741
Hex-A | 1 | -0.747 | -0.634 | -0.926
Hex-A | 2 | -0.581 | -0.264 | -1.32
eca | 1 | 0.128 | 0.44 | 0.153
CG31415 | 1 | -0.814 | -0.614 | -0.244
Cpr72Ea | 1 | -0.919 | -0.0215 | -2.24
CG7326 | 1 | 0.485 | -0.375 | 0.564
Gdap2 | 1 | 0.46 | 0.315 | -0.0485
Gdap2 | 2 | 1.33 | 0.9 | 0.833
Taf13 | 1 | 0.581 | -0.0646 | 0.299
CG2162 | 1 | 0.0456 | -6.63 | 0.0793
CG2162 | 2 | 1.47 | -2.52 | 0.445
CDK2AP1 | 1 | -1.88 (active) | -2.55 | -1.44
CDK2AP1 | 2 | -0.653 | -0.435 | -0.654
CG3356 | 1 | 0.319 | 0.365 | -0.00794
CG3356 | 2 | 0.172 | 1.03 | -0.836
Hez + CG6709 | 1 | -2.27 | -0.677 | -1.61
CG14834 | 1 | 0.278 | 0.454 | 0.994
CG14834 | 2 | -0.399 | -0.694 | -1.83
TTLL1B | 1 | -0.427 | 0.076 | -0.0484
PlexB | 1 | 0.542 | -0.335 | -0.277
CG17239 | 1 | -0.965 | 0.993 | 0.945
CG16815 | 1 | -0.937 | 0.53 | -3.63
CG16815 | 2 | 0.402 | 0.46 | 0.293
CG15919 | 1 | 0.494 | -1.2 | -1.27
CG17169 | 1 | 2.31 | 1.11 | 1.76
Dtd | 1 | -1.42 | -5.55 | -1.49
CG17575 | 1 | -1.08 | -0.934 | 0.0943
CG17575 | 2 | -0.98 | -0.977 | 1.16
CG5969 | 1 | 0.729 | 1.14 | 0.931
CG5969 | 2 | -2.11 | -1.48 | -0.222
CG31882 | 1 | 0.728 | 0.0739 | 1.1
CG6462 | 1 | -0.81 | 0.0489 | 0.417
CG6462 | 2 | -0.605 | 1.02 | -1.82
